Test system: Hz formation in cultured P. falciparum

5-(tert-Butyl)-N,N-di(pyridin-3-yl)isophthalamide [Compound 15i]
decrease in Hz (ΔHz) (at 2.5 times the IC50, 32 h, relative to control): ~ 40 fg/cell

5-(tert-Butyl)-N,N-diphenylisophthalamide [Compound 15j]
change in free heme or Hz levels with increasing concentration (negative control compound): No significant change

N,N-bis(4-((Dimethylamino)methyl)phenyl)-5-nitroisophthalamide [Compound 17]
non-Hz heme (at the IC50 of 17, control 7%): 41%

Source: article PMC4945415 (Journal of medicinal chemistry, 2016)
